A mixed list of measured activities; the numbers were collected in NIAID ChemDB.

Shared fields: toxicity to cultured cells; cell line: HepG2 cells; measure: CC50

CCn: concentration that lowers growth or viability of the cells by n%. Rows are shuffled and stem from different studies.

smiles	read by	result
COc1ccc(CNCCNc2ccnc3cc(Cl)ccc23)cc1	MTT	5.816 µM
O=C(Oc1cc(Cl)ccc1C(=O)Nc1ccc(Cl)c(Cl)c1)c1ccccc1	tetrazolium	2.54 µM
COc1cc(C)cc(/C=N/NC(=O)Cc2cccs2)c1O	MTT	1020 µM
CCCCN1C(=O)c2ccccc2NC1c1ccc(OC)c(COc2ccc(F)cc2)c1	luminescence	>20 µM
O=C(Oc1cc(Br)ccc1C(=O)Nc1ccc(C(F)(F)F)cc1)c1ccccc1	tetrazolium	2.34 µM
CCN(CC)CCN1C(=O)c2ccccc2NC1c1ccc(Br)cc1	luminescence	>30 µM
O=C(Cc1cccs1)N/N=C/c1sccc1[N+](=O)[O-]	MTT	458.8 µM
O=C(Oc1cc(Cl)ccc1C(=O)Nc1ccc(C(F)(F)F)cc1)c1ccccc1	tetrazolium	2.4 µM
COc1ccc(CNCCCNc2ccnc3cc(Cl)ccc23)cc1	MTT	4.808 µM
CCN(CC)CCN1C(=O)c2ccccc2NC1c1ccc(OC)c(COc2ccc(F)cc2)c1	luminescence	>30 µM
Clc1ccc2c(NCCNCc3ccncc3)ccnc2c1	MTT	153 µM
O=C(Oc1cc(Cl)ccc1C(=O)Nc1cccc(Br)c1)c1cnccn1	tetrazolium	7.04 µM
CCN(CC)CCN1C(=O)c2ccccc2NC1c1ccccc1F	luminescence	>20 µM
Fc1ccc(CNCCCNc2ccnc3cc(Cl)ccc23)cc1	MTT	5.433 µM
CCCCN1C(=O)c2ccccc2NC1c1ccc(OC)cc1	luminescence	>30 µM
O=C(Oc1cc(Cl)ccc1C(=O)Nc1ccc(Cl)c(Cl)c1)c1cnccn1	tetrazolium	3.16 µM

The first 2 rows once more:

smiles	read by	result
COc1ccc(CNCCNc2ccnc3cc(Cl)ccc23)cc1	MTT	5.816 µM
O=C(Oc1cc(Cl)ccc1C(=O)Nc1ccc(Cl)c(Cl)c1)c1ccccc1	tetrazolium	2.54 µM